Target: T1, influenza nucleoprotein (NP), recombinant (influenza A virus A/Puerto Rico/8/1934 (H1N1)), P03466
T1 chain: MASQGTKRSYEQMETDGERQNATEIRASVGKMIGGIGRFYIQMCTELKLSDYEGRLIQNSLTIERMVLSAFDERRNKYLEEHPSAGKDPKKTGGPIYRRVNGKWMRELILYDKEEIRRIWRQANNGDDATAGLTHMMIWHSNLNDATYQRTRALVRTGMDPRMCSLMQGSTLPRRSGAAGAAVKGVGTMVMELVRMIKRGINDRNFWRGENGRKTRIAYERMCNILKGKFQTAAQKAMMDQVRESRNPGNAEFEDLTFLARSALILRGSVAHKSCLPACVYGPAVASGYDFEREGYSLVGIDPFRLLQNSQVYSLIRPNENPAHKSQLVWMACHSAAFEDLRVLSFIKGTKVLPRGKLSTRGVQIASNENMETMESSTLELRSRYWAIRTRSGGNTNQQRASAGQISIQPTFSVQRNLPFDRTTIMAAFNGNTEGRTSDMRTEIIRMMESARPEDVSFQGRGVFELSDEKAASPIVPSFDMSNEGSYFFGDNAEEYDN
Test: SEC
Conditions: remark: other sources report otherwise

B1: influenza nucleoprotein (NP), recombinant, P03466 1-498 (natural protein)
chain: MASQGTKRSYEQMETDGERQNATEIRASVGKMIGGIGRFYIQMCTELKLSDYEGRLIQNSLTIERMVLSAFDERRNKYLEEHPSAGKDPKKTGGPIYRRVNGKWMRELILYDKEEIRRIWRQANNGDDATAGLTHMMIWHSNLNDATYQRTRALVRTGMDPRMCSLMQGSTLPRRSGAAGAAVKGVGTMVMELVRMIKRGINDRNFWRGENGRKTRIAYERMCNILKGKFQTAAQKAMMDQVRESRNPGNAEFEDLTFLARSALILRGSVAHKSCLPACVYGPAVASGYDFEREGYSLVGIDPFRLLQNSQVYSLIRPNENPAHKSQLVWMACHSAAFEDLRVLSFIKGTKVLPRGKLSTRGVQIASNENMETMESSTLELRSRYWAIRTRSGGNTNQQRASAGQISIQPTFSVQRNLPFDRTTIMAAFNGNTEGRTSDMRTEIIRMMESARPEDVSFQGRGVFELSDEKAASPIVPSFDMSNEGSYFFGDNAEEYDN
- stoichiometry N: 3
